Anti-infective test results gathered from many reports (values: NIAID ChemDB through PubChem).

All rows: whole-cell or culture tests; organism: Herpes simplex virus 1; endpoint: EC50

Neighbouring rows are from separate reports. An empty or dashed field is not shown. ECn is the concentration giving n% inhibition of infection, replication or growth.

SMILES | method | cell line | strain | result
O=Cc1cn([C@H]2C[C@H](O)[C@@H](CO)O2)c(=O)[nH]c1=O | cytopathic effect | PRK | VDX500 | 0.4 µg/mL
CC(=O)OCCOCN1C=CC(=O)N(COCCO)S1(=O)=O | - | E6SM | KOS | >400 µg/mL
Nc1ncnc2c1ncn2[C@@H]1O[C@H](CO)[C@@H](O)[C@H]1OP(=O)(O)OC[C@H]1O[C@@H](n2cnc3c(N)ncnc32)[C@H](OP(=O)(O)OC[C@H]2O[C@@H](n3cc(/C=C/Br)c(=O)[nH]c3=O)C[C@@H]2O)[C@@H]1O | cytopathic effect | PRK | KOS | 0.07 µg/mL
O=c1[nH]c(=O)n([C@H]2C[C@H](O)[C@@H](CO)O2)cc1I | cytopathic effect | PRK | VEO231 | 0.15 µg/mL
CC(=O)OCCOCN1C(N)=CC(N)=NS1(=O)=O | - | E6SM | VMW1837 (TK-) | >400 µg/mL
CCCc1cn([C@H]2C[C@H](O)[C@@H](COP(=O)(O)O)O2)c(=O)[nH]c1=O | cytopathic effect | HSF | KOS | 4 µg/mL
Nc1nc2c(ncn2CC[C@@H](O)CO)c(=O)[nH]1 | plaque count | BHK | C42 | 23 µM
Nc1ncnc2c1ncn2[C@@H]1O[C@H](CO)[C@@H](O)[C@@H]1O | plaque count | MEF | E-377 | 14 µM
Nc1nc2c(ncn2CCCC(CO)CO)c(=O)[nH]1 | plaque count | VERO | C42 | 0.3 µM
[N-]=[N+]=NCc1cn([C@H]2C[C@H](O)[C@@H](CO)O2)c(=O)[nH]c1=O | cytopathic effect | PRK | VEX149 | 2 µg/mL
COc1cc(F)c([C@H]2C[C@H](O)[C@@H](CO)O2)cc1[N+](=O)[O-] | cytopathic effect | E6SM | McIntyre | >400 µg/mL
Cn1cc(C(=O)NCc2ccc(Cl)cc2)c(=O)c2cc(CN3CCOCC3)ccc21 | plaque count | HFF | F | 2.8 µM
OC[C@H]1O[C@@H](c2cc(C(F)(F)F)c(F)cc2F)C[C@@H]1O | cytopathic effect | E6SM | KOS/ACV-R | >400 µg/mL
CCc1cc([C@H]2C[C@H](O)[C@@H](CO)O2)c(F)cc1F | cytopathic effect | E6SM | VMW1837 (TK-) | >400 µg/mL
Nc1nc2c(ncn2COC(CO)CO)c(=O)[nH]1 | plaque count | VERO H | 5399 | 1.08 µM
Cc1cc([C@@H]2C[C@H](O)[C@@H](CO)O2)c(F)cc1F | cytopathic effect | E6SM | KOS | >400 µg/mL
OC[C@H]1O[C@@H](c2cc(/C=C/Br)c(F)cc2F)C[C@@H]1O | cytopathic effect | E6SM | KOS | >400 µg/mL
Nc1ncnc2c1ncn2[C@H]1CO[C@H](CO)[C@@H](O)C1 | cytopathic effect | E6SM | TK-/TK+ (VMW 1837) | >20 µg/mL
OC[C@H]1O[C@H](c2cc(Cl)c(F)cc2F)C[C@@H]1O | cytopathic effect | E6SM | F | >400 µg/mL
Nc1ccn(C[C@@H](CO)OCP(=O)(O)O)c(=O)n1 | plaque count | MRC-5 | BW-S (TK+) | 8.5 µM
OC[C@H]1O[C@@H](c2cc(C#CI)c(F)cc2F)C[C@@H]1O | cytopathic effect | E6SM | F | >400 µg/mL
O=[N+]([O-])c1cc([C@H]2C[C@H](O)[C@@H](CO)O2)c(F)cc1F | cytopathic effect | E6SM | KOS/ACV-R | >400 µg/mL
Nc1nc2c(ncn2COCCO)c(=O)[nH]1 | cytopathic effect | HFF | H30716 (acyclovir-susceptible) | 0.5 µg/mL
CCOC(=O)C1=CN(COCCOC(C)=O)S(=O)(=O)N=C1N | - | E6SM | VMW1837 (TK-) | >400 µg/mL
CC(=O)OC[C@H]1[C@H](COC(C)=O)[C@@H](COC(C)=O)O[C@H]1n1cnc2c(N)ncnc21 | plaque count | MEF | Clinical isolate Wilson | 123 µM
CC(=O)OCCOCN1C(=N)/C(=C(\C)O)C(N)=NS1(=O)=O | - | E6SM | B206 (TK-) | >400 µg/mL
Nc1ncnc2c1ncn2[C@@H]1O[C@H](CO)[C@@H](O)[C@H]1OP(=O)(O)OC[C@H]1O[C@@H](n2cnc3c(N)ncnc32)[C@H](OP(=O)(O)OC[C@H]2O[C@@H](n3cc(F)c(=O)[nH]c3=O)C[C@@H]2O)[C@@H]1O | cytopathic effect | PRK | F | 100 µg/mL
CC(=O)OCCOCN1C(C)=CC(N)=[N+](c2ccccc2)S1(=O)=O | - | E6SM | F | >400 µg/mL
CSCc1cn([C@H]2C[C@H](O)[C@@H](CO)O2)c(=O)[nH]c1=O | cytopathic effect | PRK | F | 10 µg/mL
Cc1cn([C@@H]2CO[C@H](CO)[C@@H](O)C2)c(=O)[nH]c1=O | cytopathic effect | E6SM | TK-/B2006 | >20 µg/mL
CCc1cn([C@H]2C[C@H](O)[C@@H](COP(=O)(O)O)O2)c(=O)[nH]c1=O | cytopathic effect | PRK | B2006 (TK-) | >820 µg/mL
Nc1nc2c(ncn2C[C@]2(CO)C[C@H]2CO)c(=O)[nH]1 | plaque count | MRC-5 | 5 isolates | 0.013 µg/mL
O=C(NCc1ccc(Cl)cc1)c1cn2c3c(cc(CN4CCOCC4)cc3c1=O)OC(c1cccnc1)C2 | plaque count | HFF | L6010381 | 5.6 µM
Cc1cc([C@@H]2C[C@H](O)[C@@H](CO)O2)c(Cl)cc1F | cytopathic effect | E6SM | KOS/ACV-R | >400 µg/mL
Cc1cn([C@H]2CO[C@H](CO)[C@@H](O)C2)c(=O)[nH]c1=O | cytopathic effect | E6SM | TK-/TK+ (VMW 1837) | >20 µg/mL
Cc1cc([C@H]2C[C@H](O)[C@@H](CO)O2)c(F)cc1Cl | cytopathic effect | E6SM | KOS/ACV-R | >400 µg/mL
Nc1nc2c(ncn2CCC(CO)CO)c(=O)[nH]1 | plaque count | VERO | KT3 | 55.7 µM

The first 4 rows once more:

SMILES	method	cell line	strain	result
O=Cc1cn([C@H]2C[C@H](O)[C@@H](CO)O2)c(=O)[nH]c1=O	cytopathic effect	PRK	VDX500	0.4 µg/mL
CC(=O)OCCOCN1C=CC(=O)N(COCCO)S1(=O)=O	-	E6SM	KOS	>400 µg/mL
Nc1ncnc2c1ncn2[C@@H]1O[C@H](CO)[C@@H](O)[C@H]1OP(=O)(O)OC[C@H]1O[C@@H](n2cnc3c(N)ncnc32)[C@H](OP(=O)(O)OC[C@H]2O[C@@H](n3cc(/C=C/Br)c(=O)[nH]c3=O)C[C@@H]2O)[C@@H]1O	cytopathic effect	PRK	KOS	0.07 µg/mL
O=c1[nH]c(=O)n([C@H]2C[C@H](O)[C@@H](CO)O2)cc1I	cytopathic effect	PRK	VEO231	0.15 µg/mL